Source: PubChem BioAssay AID2629 (Broad Institute, 2010)
Only a part is listed here, and it is no random draw. Active and inactive are the calls of the source. Cut-off read from the data, not from the text of the source: active = inhibition mostly above about 10% (no sharp cut-off); inactive = mostly below about 6.7%.

Sequences of proteins named here, by UniProt entry; tags and fusion partners are left off.
UniProt Q9QR71, whole entry: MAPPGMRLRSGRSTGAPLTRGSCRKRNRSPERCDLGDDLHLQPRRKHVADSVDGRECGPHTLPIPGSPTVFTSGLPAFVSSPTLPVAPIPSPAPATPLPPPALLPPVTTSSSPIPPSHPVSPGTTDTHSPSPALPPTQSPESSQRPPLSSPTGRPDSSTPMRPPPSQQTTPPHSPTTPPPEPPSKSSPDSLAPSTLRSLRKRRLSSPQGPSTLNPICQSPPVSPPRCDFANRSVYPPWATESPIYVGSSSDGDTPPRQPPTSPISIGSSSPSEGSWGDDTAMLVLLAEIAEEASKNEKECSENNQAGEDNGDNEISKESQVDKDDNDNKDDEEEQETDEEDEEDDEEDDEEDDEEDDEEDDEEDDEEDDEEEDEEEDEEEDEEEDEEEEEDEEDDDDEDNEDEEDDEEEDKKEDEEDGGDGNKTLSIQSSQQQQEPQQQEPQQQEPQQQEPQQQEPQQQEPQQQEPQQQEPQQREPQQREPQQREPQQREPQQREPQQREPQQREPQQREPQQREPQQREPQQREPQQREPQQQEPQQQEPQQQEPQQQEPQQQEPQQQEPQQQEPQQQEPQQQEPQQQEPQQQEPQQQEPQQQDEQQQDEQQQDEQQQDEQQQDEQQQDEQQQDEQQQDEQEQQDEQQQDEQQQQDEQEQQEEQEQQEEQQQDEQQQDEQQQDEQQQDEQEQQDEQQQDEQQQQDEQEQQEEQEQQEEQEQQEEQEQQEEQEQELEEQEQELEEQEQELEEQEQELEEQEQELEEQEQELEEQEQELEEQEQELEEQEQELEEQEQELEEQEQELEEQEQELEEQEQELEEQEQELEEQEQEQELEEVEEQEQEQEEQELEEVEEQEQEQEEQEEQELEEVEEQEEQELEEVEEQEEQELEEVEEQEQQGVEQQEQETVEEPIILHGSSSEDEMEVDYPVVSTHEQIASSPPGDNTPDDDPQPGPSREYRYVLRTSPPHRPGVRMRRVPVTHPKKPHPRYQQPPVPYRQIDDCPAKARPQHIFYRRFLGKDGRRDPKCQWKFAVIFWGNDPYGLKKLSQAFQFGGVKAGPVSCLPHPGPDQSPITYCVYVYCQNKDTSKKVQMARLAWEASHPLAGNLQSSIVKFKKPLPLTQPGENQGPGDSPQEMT

What follows are compounds tested against Protein LANA1 (Human herpesvirus 8 type P (isolate GK18)) (UniProt Q9QR71) (assay: blockers of LANA interaction with H2A/H2B – biochemical, FP readout, HTS, primary screen (AID 2629)). Details: cell-free LANA-H2A/H2B peptide, fluorescence polarization; active compounds read high; concentration not given here.

Question: With `CCOc1ccc(C)cc1CN(CCCl)CCCl` as the compound, how does the inhibition read?
Answer: inactive: -5.97%

Question: Which inhibition does the source give for `O=C(NCC1(N2CCCCC2)CCCCC1)c1ccc(F)cc1` here?
Answer: inactive: -6.24%

Question: With `CCOC(=O)N1CCC(Nc2ccc(F)cc2)CC1` as the compound, how does the inhibition read?
Answer: inactive: 14.9%

Question: For `COc1ccc(NC2CCN(CCc3ccccc3)CC2)c(OC)c1`, which inhibition is on record?
Answer: inactive: 5.68%

Question: Which inhibition does the source give for `CCOC(=O)N1CCC(Nc2cccc(C)c2)CC1` here?
Answer: inactive: -2.8%

Question: `COc1cc(C(=O)NCC2(N(C)C)CCCCC2)ccc1OC(F)F` was tested. Which inhibition did it give?
Answer: inactive: 2.58%

Question: How did the inhibition turn out when `Cc1ccc(OCC(C)C)c(CN(CCCl)CCCl)c1` was run?
Answer: inactive: -2.47%

Question: How did the inhibition turn out when `O=C(NCC1(N2CCCCC2)CCCCC1)c1ccc(=O)[nH]c1` was run?
Answer: inactive: 0.764%

Question: With `O=C(NCC1(N2CCCCC2)CCCCC1)c1cccs1` as the compound, how does the inhibition read?
Answer: inactive: 0.606%

Question: Which inhibition does the source give for `COc1ccc(C(=O)NCC2(N3CCCCC3)CCCCC2)cc1` here?
Answer: inactive: 3.22%

Question: `COc1ccc(C(=O)NCC2(N3CCCCC3)CCCCC2)c(OC)c1OC` was tested. Which inhibition did it give?
Answer: inactive: -2.93%

Question: With `CC(C)(C)OC(=O)N1CCC(N(C(=O)c2ccccc2)c2ccc(F)cc2)CC1` as the compound, how does the inhibition read?
Answer: inactive: 0.426%

Question: `CSc1ccccc1C(=O)NCC1(N2CCCCC2)CCCCC1` was tested. Which inhibition did it give?
Answer: inactive: 2.38%

Question: With `O=C(NCC1(N2CCOCC2)CCCCC1)c1cc2ccccc2o1` as the compound, how does the inhibition read?
Answer: inactive: 1.75%

Question: Which inhibition does the source give for `O=C(NCC1(N2CCCCC2)CCCCC1)c1ccc(Cl)nc1` here?
Answer: inactive: -4.12%

Question: `Cc1cc(C)cc(N(C(=O)c2ccccc2)C2CCN(C(=O)OC(C)(C)C)CC2)c1` was tested. Which inhibition did it give?
Answer: inactive: -3.52%

Question: Which inhibition does the source give for `CCOC(=O)N1CCC(Nc2ccc(OC)cc2)CC1` here?
Answer: inactive: -6.73%

Question: With `N#CC1(Nc2ccccc2)CCN(Cc2ccccc2)CC1` as the compound, how does the inhibition read?
Answer: inactive: -3.75%

Question: For `O=C(NCC1(N2CCCCC2)CCCCC1)c1ccc(Cl)s1`, which inhibition is on record?
Answer: inactive: 6.69%

Question: `O=C(OC1CN2CCC1CC2)C1c2ccccc2Oc2ccccc21` (stereo unspecified) was tested. Which inhibition did it give?
Answer: inactive: -4.49%

Question: For `COc1ccc(Cl)cc1C(=O)NCC1(N2CCOCC2)CCCCC1`, which inhibition is on record?
Answer: inactive: 3.48%

Question: How did the inhibition turn out when `COc1ccc(CN(CCCl)CCCl)cc1Cl` was run?
Answer: inactive: 4.42%

Question: Which inhibition does the source give for `CN(C)c1cccc(C(=O)NCC2(N3CCCCC3)CCCCC2)c1` here?
Answer: inactive: -3.46%

Question: For `CC(C)c1ccc(NC2CCN(C(=O)OC(C)(C)C)CC2)cc1`, which inhibition is on record?
Answer: inactive: 0.702%

Question: How did the inhibition turn out when `COc1cc(OC)c(C(=O)NCC2(N(C)C)CCCCC2)cc1OC` was run?
Answer: inactive: 1.15%

Question: With `O=C(NCC1(N2CCOCC2)CCCCC1)c1cc(F)c(F)cc1Cl` as the compound, how does the inhibition read?
Answer: inactive: 0.681%

Question: With `CN1CCC(Nc2cccc(F)c2)CC1` as the compound, how does the inhibition read?
Answer: inactive: -1.67%

Question: `O=C(NCC1(N2CCCCC2)CCCCC1)c1cncc(Br)c1` was tested. Which inhibition did it give?
Answer: inactive: -9.05%

Question: For `CCCOc1ccc(C(=O)NCC2(N(C)C)CCCCC2)cc1OC`, which inhibition is on record?
Answer: inactive: 1.08%

Question: For `O=C(NCC1(N2CCCCC2)CCCCC1)c1ccc(OC(F)F)cc1`, which inhibition is on record?
Answer: inactive: -2.48%

Question: How did the inhibition turn out when `O=C(NCC1(N2CCCCC2)CCCCC1)c1cccc([N+](=O)[O-])c1` was run?
Answer: inactive: 4.78%

Question: Which inhibition does the source give for `CCN1CCC(Nc2ccc(Cl)cc2)CC1` here?
Answer: inactive: 0.676%

Question: With `N#CC1(Nc2ccccc2)CCN(CCc2ccccc2)CC1` as the compound, how does the inhibition read?
Answer: inactive: -4.81%

Question: For `O=C(NCC1(N2CCCCC2)CCCCC1)c1cccc(C(F)(F)F)c1`, which inhibition is on record?
Answer: inactive: 3.19%

Question: With `COc1ccc(NC2CCN(C(=O)OC(C)(C)C)CC2)cc1` as the compound, how does the inhibition read?
Answer: inactive: 3.26%

Question: Which inhibition does the source give for `CN1CCN(CCOC(=O)C(O)(c2ccccc2)c2ccccc2)CC1` here?
Answer: inactive: 1.17%

Question: `O=C(NCC1(N2CCOCC2)CCCCC1)c1cc(=O)[nH]c2ccccc12` was tested. Which inhibition did it give?
Answer: inactive: -0.374%

Question: How did the inhibition turn out when `COc1cc(C(=O)NCC2(N3CCCCC3)CCCCC2)ccc1OC(F)F` was run?
Answer: inactive: 1.13%

Question: How did the inhibition turn out when `CC(C)(C)OC(=O)N1CCC(N(C(=O)c2ccccc2)c2ccc(Cl)cc2)CC1` was run?
Answer: inactive: -0.651%

Question: How did the inhibition turn out when `N#Cc1ccc(C(=O)NCC2(N3CCCCC3)CCCCC2)cc1` was run?
Answer: inactive: 0.544%

Question: For `c1ccc(CN2CCC(Nc3ccccc3)CC2)cc1`, which inhibition is on record?
Answer: inactive: 4.56%

Question: For `CCCN1CCC(Nc2cc(OC)cc(OC)c2)CC1`, which inhibition is on record?
Answer: inactive: 2.1%

Question: Which inhibition does the source give for `CN(C)C1(CNC(=O)c2cccc(C#N)c2)CCCCC1` here?
Answer: inactive: -3.48%

Question: For `O=C(NCC1(N2CCOCC2)CCCCC1)c1cc(Br)ccc1Cl`, which inhibition is on record?
Answer: inactive: 5.94%

Question: For `COc1cc(C(=O)NCC2(N3CCOCC3)CCCCC2)cc(OC)c1C`, which inhibition is on record?
Answer: inactive: -0.793%

Question: `COc1ccc(C(=O)NCC2(N3CCOCC3)CCCCC2)cc1OC` was tested. Which inhibition did it give?
Answer: inactive: -4.48%

Question: For `N/C(=N\O)c1c(N)no[n+]1[O-]`, which inhibition is on record?
Answer: inactive: -5.45%

Question: With `CCOC(=O)N1CCC(Nc2ccc(C)cc2)CC1` as the compound, how does the inhibition read?
Answer: inactive: -1.71%

Question: Which inhibition does the source give for `CCc1cc(C(=O)NCC2(N3CCCCC3)CCCCC2)sc1C` here?
Answer: inactive: -2.24%

Question: With `O=C(OC1CN2CCC1CC2)C1c2ccccc2C=Cc2ccccc21` (stereo unspecified) as the compound, how does the inhibition read?
Answer: inactive: 4.27%

Question: For `CCOc1ncccc1C(=O)NCC1(N2CCOCC2)CCCCC1`, which inhibition is on record?
Answer: inactive: -5.39%

Question: How did the inhibition turn out when `CN1CCC(Nc2ccc(F)c(Cl)c2)CC1` was run?
Answer: inactive: -3.26%

Question: Which inhibition does the source give for `CCCOc1ccc(C(=O)NCC2(N(C)C)CCCCC2)cc1` here?
Answer: inactive: -0.0383%

Question: With `CC(C)(C)OC(=O)N1CCC(Nc2ccccc2)CC1` as the compound, how does the inhibition read?
Answer: inactive: -3.54%

Question: With `O=C(O)C1(Nc2ccccc2)CCN(Cc2ccccc2)CC1` as the compound, how does the inhibition read?
Answer: inactive: -1.25%

Question: `CCC(CO)(C(=O)OC1CN2CCC1CC2)c1ccccc1` (stereo unspecified) was tested. Which inhibition did it give?
Answer: inactive: 3.26%

Question: `COc1cccc(C(=O)N(c2cc(C)cc(C)c2)C2CCN(C(=O)OC(C)(C)C)CC2)c1` was tested. Which inhibition did it give?
Answer: inactive: 1.55%

Question: `COc1cc(OC)cc(C(=O)NCC2(N3CCOCC3)CCCCC2)c1` was tested. Which inhibition did it give?
Answer: inactive: 2.6%

Question: For `CCCOc1ccc(C)cc1CN(CCCl)CCCl`, which inhibition is on record?
Answer: inactive: -1.97%

Question: Which inhibition does the source give for `CN1CCC(Nc2ccc(Cl)cc2)CC1` here?
Answer: inactive: 7.82%

Question: For `COc1cc(OC)cc(C(=O)NCC2(N3CCCCC3)CCCCC2)c1`, which inhibition is on record?
Answer: inactive: -5.87%

Question: How did the inhibition turn out when `Cc1ccc(C(=O)NCC2(N3CCCCC3)CCCCC2)o1` was run?
Answer: inactive: -2.47%

Question: For `Fc1ccccc1NC1CCN(Cc2ccccc2)CC1`, which inhibition is on record?
Answer: inactive: -1.03%

Question: `CCN1CCC(Nc2cccc(F)c2)CC1` was tested. Which inhibition did it give?
Answer: inactive: 3.71%

Question: How did the inhibition turn out when `O=C(NCC1(N2CCCCC2)CCCCC1)c1ccco1` was run?
Answer: inactive: -3.17%

Question: With `CN(C)c1ccc(C(=O)NCC2(N3CCCCC3)CCCCC2)cc1` as the compound, how does the inhibition read?
Answer: inactive: 2.35%
